Experiments:
Experiment in all cases: purified protein
[1] = tested on: CC(=O)Oc1ccc([N+](=O)[O-])cc1; conditions: pH 7.6; 37.0 °C
[2] = tested on: CCCC(=O)Oc1ccc([N+](=O)[O-])cc1; conditions: pH 7.6; 37.0 °C
[3] = tested on: CCCCCCCCCCCCCCCC(=O)SCCNC(=O)CCNC(=O)[C@H](O)C(C)(C)COP(=O)(O)OP(=O)(O)OC[C@H]1O[C@@H](n2cnc3c(N)ncnc32)[C@H](O)[C@@H]1OP(=O)(O)O; conditions: pH 7.2

M. tuberculosis GroEL1 (Cpn60.1) (Mycobacterium tuberculosis H37Rv)
Km [1]: 1130 ± 740 µM
Km [2]: 180 ± 80 µM
Km [3]: 25.95 ± 3.52 µM
